Tested on: anthrax
Test: Resistance to anthrax infection in laboratory animals (Example 16)
Conditions: 3 micrograms per kilogram i.p., from 10 days prior and for two months

Substance: 3-O-metyl-β-D-glucopyranosyl-(1→3)-β-D-xylopyranosyl-(1→4)-[β-D-xylopyranosyl-(1→2)]-β-D-quinovopyranosyl-(1→2)-4-O-sodium sulfate-β-D-xylopyranosyl-3-O-holost-7(8)-en-3β-ol-16β-O-acetate
- more animals alive at experiment end vs untreated group: 60%
